Anti-infective test results gathered from many reports (values: NIAID ChemDB through PubChem).

Common to all: tests in culture; agent: Hepatitis C virus; cell line: Huh7; endpoint: EC50

An empty or dashed field is not shown. ECn: concentration that inhibits the pathogen or its effect by n%. Rows are shuffled and stem from different studies. a–b is a range or a potency band.

compound	setting	strain	read by	mutations	value
COc1cc(Cc2cnc(/N=C3\C(=O)N(CN4CCCCC4)c4ccc(C)cc43)nc2N)cc(OC)c1OC	-	-	-	-	<50 µg/mL
COc1ccc2c(O[C@@H]3C[C@H]4C(=O)N[C@]5(C(=O)NS(=O)(=O)C6CC6)CC5(F)/C=C\CCCCN(C)C(=O)[C@@H]4C3)cc(-c3nc(C(C)C)cs3)nc2c1C	genotype 1b	-	luciferase	-	>25 µM
O=C(O)/C=C/c1ccc(NC(=O)C2(NC(=O)c3ccc4c(c3)nc(-c3ccccn3)n4C3C[C@H]4CC[C@@H]3C4)CCCC2)cc1	-	-	-	-	≤5 µM
N#Cc1c(Nc2ccc(Br)c(Cl)c2)s[nH]c1=O	-	-	replicon	-	<1 µM
C=CC1CC1(NC(=O)[C@@H]1C[C@@H](OC(=O)Nc2ccccc2I)CN1C(=O)[C@@H](NC(=O)OC(C)(C)C)C(C)(C)C)C(=O)NS(=O)(=O)C1CC1	-	1b	replicon	-	0.1–1 µM
COc1ccc2c(O[C@@H]3C[C@@H](C(=O)N[C@@]4(C(=O)NS(=O)(=O)C5(Cc6ccccc6)CC5)CC45CC5)N(C(=O)[C@@H](NC(=O)OC(C)(C)C)C(C)(C)C)C3)cc(-c3ccccc3)nc2c1	-	1b	replicon	-	5–50 µM
C=CC1CC1(NC(=O)[C@@H]1C[C@@H](OC(=O)NC2CCCCC2)CN1C(=O)[C@@H](NC(=O)OC(C)(C)C)C(C)(C)C)C(=O)NS(=O)(=O)C1CC1	-	1b	replicon	-	1–10 µM
Cn1c(C(=O)O)cc2cc(NC(=O)C3(NC(=O)c4ccc5c(c4)nc(-c4ccoc4)n5C4CCCCC4)CCCC3)ccc21	-	-	-	-	≤5 µM
COc1cc(Cc2cnc(/N=C3\C(=O)N(CN4CCN(c5ccc([N+](=O)[O-])cc5)CC4)c4ccc(C)cc43)nc2N)cc(OC)c1OC	-	-	-	-	<50 µg/mL
COc1ccc2c(O[C@@H]3C[C@@H](C(=O)N[C@@]4(C(=O)NS(=O)(=O)C5(CC6CC6)CC5)CC4C4CC4)N(C(=O)[C@@H](NC(=O)OC(C)(C)C)C(C)(C)C)C3)cc(-c3ccccc3)nc2c1	-	1b	replicon	-	0.05–0.5 µM
O=C(O)/C=C/c1ccc(NC(=O)C2(NC(=O)c3ccc4c(c3)nc(-c3ccoc3)n4C3CCCCC3)CCC2)cc1	-	-	-	-	≤5 µM
Nc1nc2cnc(N3CCC(Oc4cc(F)ccc4Br)CC3)nc2s1	50% human serum	GT1b	PCR	-	>40 µM
O=S(=O)(Cc1ccc(C(F)(F)F)cc1)N/N=C/c1ccccc1NS(=O)(=O)c1ccc(C(F)(F)F)cc1	-	-	replicon	-	5–50 µM
CC(C)c1cccc(C(C)C)c1Nc1s[nH]c(=O)c1C#N	-	-	replicon	-	10–50 µM
O=C(O)c1ccc2nc(-c3ccccc3)c(-c3ccccc3)nc2c1	-	-	replicon	-	>50 µM
C=C[C@H]1C[C@@]1(NC(=O)[C@@H]1C[C@@H](Oc2cc(C3CC3)nc3cc(Cl)ccc23)CN1C(=O)[C@@H](NC(=O)OC(C)(C)C)C(C)(C)C)C(=O)OCC	-	1b	replicon	-	0.05–0.5 µM
C[C@@]1(F)[C@H](O)[C@@H](CO)O[C@@]1(CN)n1ccc(=O)[nH]c1=O	-	1a	replicon	-	>89 µM
C=CC1CC1(NC(=O)[C@@H]1C[C@@H](OC(=O)Nc2c(Cl)cccc2Cl)CN1C(=O)[C@@H](NC(=O)OC(C)(C)C)C(C)(C)C)C(=O)NS(=O)(=O)C1CC1	-	1b	replicon	-	1–10 µM
COc1ccc(N=C2SC(c3ccc(NC(=O)[C@H]4CCCN4C(=O)OCc4ccccc4)cc3)C(=O)N2Cc2ccco2)cc1F	-	-	replicon	-	<0.1 µM
C=CCCCCCCCC1(S(=O)(=O)NC(=O)[C@]2(NC(=O)[C@@H]3C[C@@H](Oc4cc(-c5ccccc5)nc5cc(OC)ccc45)CN3C(=O)[C@@H](NC(=O)OC(C)(C)C)C(C)(C)C)C[C@@H]2C=C)CC1	-	1b	replicon	-	<0.05 µM
C=CC1CC1(NC(=O)[C@@H]1C[C@@H](OC(=O)Nc2ccccc2-n2cccn2)CN1C(=O)[C@@H](NC(=O)OC(C)(C)C)C(C)(C)C)C(=O)NS(=O)(=O)C1CC1	-	1b	replicon	-	0.1–1 µM
CC[C@]1(CO)O[C@@H](n2ccc(N)nc2=O)[C@H](O)[C@@H]1O	-	-	replicon	-	>20 µM
C=CC1CC1(NC(=O)[C@@H]1C[C@@H](OC(=O)Nc2cccc(OC)c2)CN1C(=O)[C@@H](NC(=O)OC(C)(C)C)C(C)(C)C)C(=O)NS(=O)(=O)C1CC1	-	1b	replicon	-	1–10 µM
COc1ccc2c(O[C@@H]3C[C@@H](C(=O)N[C@@]4(C(=O)NS(=O)(=O)C5(Cc6ccccc6)CC5)CC4C4CC4)N(C(=O)[C@@H](NC(=O)OC(C)(C)C)C(C)(C)C)C3)cc(-c3ccccc3)nc2c1	-	1b	replicon	-	0.05–0.5 µM
N#C[C@]1(CO)O[C@@H](n2ccc(=O)[nH]c2=O)[C@H](O)[C@@H]1O	-	-	replicon	-	>20 µM
N#Cc1c(Nc2cccc([N+](=O)[O-])c2)s[nH]c1=O	-	-	replicon	-	1–10 µM
CC(C)CC[C@@]1(C)C(=O)C(C2=NS(=O)(=O)c3cc(NS(C)(=O)=O)ccc3N2)=C(O)c2ccccc21	-	6a	luciferase	-	1.388 µM
COc1c(-c2ccc3cc(NS(C)(=O)=O)ccc3c2)cc(-n2ccc(=O)[nH]c2=O)cc1C(C)(C)C	-	genotype 1b	luciferase	S282T	0.0011 µM
C=C[C@]1(CO)O[C@@H](n2ccc(=O)[nH]c2=O)[C@H](O)[C@@H]1O	-	-	replicon	-	20 µM
C=CC1CC1(NC(=O)[C@@H]1C[C@@H](OC(=O)Nc2cc(C)cc(C)c2)CN1C(=O)[C@@H](NC(=O)OC(C)(C)C)C(C)(C)C)C(=O)NS(=O)(=O)C1CC1	-	1b	replicon	-	1–10 µM
COc1cc(Cc2cnc(/N=C3\C(=O)N(CN4CCCC4)c4ccc(C)cc43)nc2N)cc(OC)c1OC	-	-	-	-	<50 µg/mL
O=C(C(=O)N1CCC[C@@H]1C(=O)Nc1ccc(C2SC(=Nc3ccc(N4CCOCC4)cc3)N(Cc3ccccn3)C2=O)cc1)c1ccccc1	-	-	replicon	-	<0.1 µM
N#Cc1c(Nc2ccc(F)cc2)s[nH]c1=O	-	-	replicon	-	10–50 µM
O=C(CC1CCCO1)N/N=C/c1ccccc1OS(=O)(=O)c1ccc(C(F)(F)F)cc1	-	-	replicon	-	<5 µM
C=C[C@H]1C[C@@]1(NC(=O)[C@@H]1C[C@@H](Oc2ccnc3cc(Cl)ccc23)CN1C(=O)[C@@H](NC(=O)OC1CCCC1)C(C)(C)C)C(=O)NS(=O)(=O)C1(CC#CCC)CC1	-	1b	replicon	-	<0.05 µM
O=C(Nc1ccc(C2SC(=Nc3cccc4ccncc34)N(Cc3ccco3)C2=O)cc1)[C@H]1CCCN1C(=O)OCc1ccccc1	-	-	replicon	-	<0.1 µM
OCc1ccn2cc(-c3cn(Cc4cc(Cl)c(Cl)c(Cl)c4)nn3)nc2c1	50% human serum	GT1b	PCR	-	>40 µM
COc1cc(C(=O)N2[C@@H](c3nccs3)[C@@H](c3cnccn3)C[C@@]2(CCS(C)(=O)=O)C(=O)O)ccc1C(C)(C)C	-	Genotype 1A	replicon	-	>100 µM
N#Cc1c(NC2C3CC4CC(C3)CC2C4)s[nH]c1=O	-	-	replicon	-	1–10 µM
OCc1nnc(-c2ccc(N3CCC(Oc4ccccc4C(F)(F)F)CC3)nn2)o1	50% human serum	GT1b	PCR	-	>40 µM
C=C[C@H]1C[C@@]1(NC(=O)[C@@H]1C[C@@H](Oc2cc(-c3ccccc3)nc3cc(OC)ccc23)CN1C(=O)[C@@H](NC(=O)OC1CCOCC1)C(C)(C)C)C(=O)NS(=O)(=O)C1(Cc2ccccc2)CC1	-	1b	replicon	-	0.05–0.5 µM
C#C[C@]1(CO)O[C@@H](n2ccc(N)nc2=O)[C@H](O)[C@@H]1O	-	-	replicon	-	>20 µM
COc1cc(C(=O)N2[C@@H](c3nccs3)[C@@H](c3cnccn3)C[C@@]2(CCS)C(=O)O)ccc1C(C)(C)C	-	genotype 1b	replicon	-	0.1–10 µM
COc1c(C(C)(C)C)cc(-c2ccc[nH]c2=O)c2ncc(-c3ccc(NS(C)(=O)=O)cc3)cc12	40% human serum	GT 1a-H77	replicon	-	0.016 µM
COc1cc(C(=O)N2[C@@H](c3nccs3)[C@@H](c3cnccn3)C[C@@]2(Cc2cscn2)C(=O)O)ccc1C(C)(C)C	-	Genotype 1A	replicon	-	<10 µM
O=C(O)/C=C/c1ccc(NC(=O)C2(NC(=O)c3ccc4c(c3)nc(-c3ccccn3)n4C3CCCC3)CCCC2)cc1	-	-	-	-	5–50 µM
CC(C)c1ccc(Nc2s[nH]c(=O)c2C#N)cc1	-	-	replicon	-	1–10 µM
COc1cccc(CC(=O)N/N=C/c2ccccc2OS(=O)(=O)c2ccc(-c3cc(C(F)(F)F)on3)s2)c1	-	-	replicon	-	<5 µM
COc1cc(Cc2cnc(/N=C3\C(=O)N(CN4CCN(c5ccc(Cl)cc5)CC4)c4ccc(C)cc43)nc2N)cc(OC)c1OC	-	-	-	-	<50 µg/mL
Cc1ccc(-c2nc3cc(C(=O)O)ccc3nc2-c2ccc(Cl)cc2)cc1	-	-	replicon	-	10–50 µM
COc1cc(C(=O)N2[C@@H](c3nccs3)[C@@H](c3cnccn3)C[C@@]2(Cc2nccs2)C(=O)O)ccc1C(C)(C)C	-	Genotype 1A	replicon	-	<10 µM
N#Cc1c(NCC2CC2)s[nH]c1=O	-	-	replicon	-	>50 µM
O=C(O)c1ccc2nc(-c3ccc(F)cc3)c(-c3ccc(F)cc3)nc2c1	-	-	replicon	-	>50 µM
C=CC1C[C@@]1(NC(=O)[C@@H]1C[C@@H](Oc2cc(-c3ccccc3)nc3cc(OC)ccc23)CN1C(=O)[C@@H](NC(=O)N(C)C(C)(C)C)C(C)(C)C)C(=O)NS(=O)(=O)C1(CC2CC2)CC1	-	1b	replicon	-	0.05–0.5 µM
O=C(Cc1cccc(Cl)c1)N/N=C/c1c(F)cccc1OS(=O)(=O)c1ccc(C(F)(F)F)cc1	-	-	replicon	-	<5 µM
CCn1cc(C(=O)O)c(=O)c2c(F)c(N3CCN(CN4C(=O)/C(=N\c5ncc(Cc6cc(OC)c(OC)c(OC)c6)c(N)n5)c5cc(C)ccc54)C(C)C3)c(F)cc21	-	-	-	-	<50 µg/mL
N#C[C@]1(CO)O[C@@H](n2ccc(N)nc2=O)[C@H](O)[C@@H]1O	-	-	replicon	-	<20 µM
COc1cc(CC(=O)N/N=C/c2ccccc2OS(=O)(=O)c2ccc(C(F)(F)F)cc2)cc(OC)c1	-	-	replicon	-	<5 µM
C=CC1CC1(NC(=O)[C@@H]1C[C@@H](OC(=O)Nc2ccccc2Cl)CN1C(=O)[C@@H](NC(=O)OC(C)(C)C)C(C)(C)C)C(=O)NS(=O)(=O)C1CC1	-	1b	replicon	-	1–10 µM
NC(=O)[C@H](Cc1c[nH]c2ccccc12)NC(=O)c1ccc2nc(-c3ccc(F)cc3)c(-c3ccc(F)cc3)nc2c1	-	-	replicon	-	10–50 µM
COc1cc(C(=O)N2[C@@H](c3nccs3)[C@@H](c3cnccn3)C[C@@]2(Cc2cnc[nH]2)C(=O)O)ccc1C(C)(C)C	-	genotype 1b	replicon	-	0.1–10 µM
COc1cccc(N2CCN(CN3C(=O)/C(=N\c4ncc(Cc5cc(OC)c(OC)c(OC)c5)c(N)n4)c4cc(C)ccc43)CC2)c1	-	-	-	-	<50 µg/mL
COc1cc(C(=O)N2[C@@H](c3ncc(C)s3)[C@@H](c3cnccn3)C[C@@]2(Cn2cccn2)C(=O)O)ccc1C(C)(C)C	-	Genotype 1A	replicon	-	<10 µM
Cn1cccc1-c1nc2cc(C(=O)NC3(C(=O)Nc4ccc(/C=C/C(=O)O)cc4)CCCC3)ccc2n1C1CCCCC1	-	-	-	-	≤5 µM
C=C[C@H]1C[C@@]1(NC(=O)[C@@H]1C[C@@H](Oc2cc(-c3ccccc3)nc3cc(OC)ccc23)CN1C(=O)[C@@H](NC(=O)OC(C)(C)C)C(C)(C)C)C(=O)NS(=O)(=O)C1(Cc2ccc(F)cc2)CC1	-	1b	replicon	-	0.05–0.5 µM

The first 9 rows once more:

compound,setting,strain,read by,mutations,value
COc1cc(Cc2cnc(/N=C3\C(=O)N(CN4CCCCC4)c4ccc(C)cc43)nc2N)cc(OC)c1OC,-,-,-,-,<50 µg/mL
COc1ccc2c(O[C@@H]3C[C@H]4C(=O)N[C@]5(C(=O)NS(=O)(=O)C6CC6)CC5(F)/C=C\CCCCN(C)C(=O)[C@@H]4C3)cc(-c3nc(C(C)C)cs3)nc2c1C,genotype 1b,-,luciferase,-,>25 µM
O=C(O)/C=C/c1ccc(NC(=O)C2(NC(=O)c3ccc4c(c3)nc(-c3ccccn3)n4C3C[C@H]4CC[C@@H]3C4)CCCC2)cc1,-,-,-,-,≤5 µM
N#Cc1c(Nc2ccc(Br)c(Cl)c2)s[nH]c1=O,-,-,replicon,-,<1 µM
C=CC1CC1(NC(=O)[C@@H]1C[C@@H](OC(=O)Nc2ccccc2I)CN1C(=O)[C@@H](NC(=O)OC(C)(C)C)C(C)(C)C)C(=O)NS(=O)(=O)C1CC1,-,1b,replicon,-,0.1–1 µM
COc1ccc2c(O[C@@H]3C[C@@H](C(=O)N[C@@]4(C(=O)NS(=O)(=O)C5(Cc6ccccc6)CC5)CC45CC5)N(C(=O)[C@@H](NC(=O)OC(C)(C)C)C(C)(C)C)C3)cc(-c3ccccc3)nc2c1,-,1b,replicon,-,5–50 µM
C=CC1CC1(NC(=O)[C@@H]1C[C@@H](OC(=O)NC2CCCCC2)CN1C(=O)[C@@H](NC(=O)OC(C)(C)C)C(C)(C)C)C(=O)NS(=O)(=O)C1CC1,-,1b,replicon,-,1–10 µM
Cn1c(C(=O)O)cc2cc(NC(=O)C3(NC(=O)c4ccc5c(c4)nc(-c4ccoc4)n5C4CCCCC4)CCCC3)ccc21,-,-,-,-,≤5 µM
COc1cc(Cc2cnc(/N=C3\C(=O)N(CN4CCN(c5ccc([N+](=O)[O-])cc5)CC4)c4ccc(C)cc43)nc2N)cc(OC)c1OC,-,-,-,-,<50 µg/mL